Results of unrelated studies side by side (data: NIAID ChemDB).

Common to all: tests in culture; organism: HIV-1; cell line: SupT1; endpoint: EC50

Neighbouring rows are from separate reports. ECn: concentration that inhibits the pathogen or its effect by n%. Blank or dashed fields: not listed here.

SMILES	strain	mutations	method	conditions	result
C=C1[C@H]2CCC(C)=C[C@@H]2[C@@H](C(C)C)[C@H](O)[C@H]1O			luciferase / luminescence	pseudotyped	37.9 µM
CC(C)=CCC/C(C)=C/CC/C(C)=C/Cc1c(O)cc2c(c1O)CN(CCO)C2=O			luciferase / luminescence	pseudotyped	9.3 µM
CCCCCSCCCCCCCC(=O)OC[C@H]1O[C@@H](n2cc(C)c(=O)[nH]c2=O)C[C@@H]1F	IIIB				>100 µg/mL
CCc1nn(CCO)c(CC)c1Oc1cc(C)cc(C#N)c1	RF				0.0003 µM
CO[C@@H]1[C@@H](OC(=O)c2ccc(C)[nH]2)[C@@H](O)C(Oc2ccc3c(O)c(NC(=O)c4c[nH]c(C(=O)Nc5c(O)c6ccc(OC7OC(C)(C)[C@H](OC)[C@@H](OC(=O)c8ccc(C)[nH]8)[C@H]7O)c(C)c6oc5=O)c4C)c(=O)oc3c2C)OC1(C)C	LAI	(delta)Env	flow cytometry / single cycle		1.3 µM
COc1cc(O)c2c(c1)C(=O)C(CC(C)=O)=C(C)C2=O			luciferase	pseudotyped	20.4 µg/mL
CC(C)=CCC/C(C)=C/CC/C(C)=C/Cc1c(O)cc2c(c1OS(=O)(=O)O)CN(CCO)C2=O			luciferase / luminescence	pseudotyped	1 µM
C=C1CN(S(=O)(=O)c2ccc(C)cc2)CCCN(Cc2ccccc2)CCCN(S(=O)(=O)c2ccc(C)cc2)C1	RF		cytopathic effect		1.8 µM
CN(c1ncc(Cc2cnc(N(C)C3CCN(Cc4ccccc4)CC3)nc2)cn1)C1CCN(Cc2ccccc2)CC1	NL4-3		luminescence		8.63 µM
CCCCCCCCCCCCCCC(=O)OC[C@H]1O[C@@H](n2cc(C)c(=O)[nH]c2=O)C[C@@H]1N=[N+]=[N-]	IIIB				>100 µg/mL
COC1=CC(=O)c2c(O)c(C)c3c(c2C1=O)OC(C)C3			luciferase	pseudotyped	26.8 µg/mL
CC1=C[C@@H]2C=C(C)[C@H]3CC=C[C@@]3(O)[C@]23C(=O)N[C@@H](CC(C)C)[C@@H]3[C@@H]1C			luciferase	pseudotyped	25 µM
CC(C)=CCC/C(C)=C/CC/C(C)=C/Cc1c(O)cc2c(c1OS(=O)(=O)O)CN(CCCC(=O)O)C2=O			luciferase / luminescence	pseudotyped	9.6 µM
Cc1[nH]c2ccccc2c1CC(=O)N[C@@H](Cc1ccccc1)C(=O)N(C)c1ccccc1	R9		GFP / reporter gene		0.3 µM

Repeating the final 2 entries:

| SMILES | strain | mutations | method | conditions | result |
|---|---|---|---|---|---|
| CC(C)=CCC/C(C)=C/CC/C(C)=C/Cc1c(O)cc2c(c1OS(=O)(=O)O)CN(CCCC(=O)O)C2=O |  |  | luciferase / luminescence | pseudotyped | 9.6 µM |
| Cc1[nH]c2ccccc2c1CC(=O)N[C@@H](Cc1ccccc1)C(=O)N(C)c1ccccc1 | R9 |  | GFP / reporter gene |  | 0.3 µM |